SMILES strings stand for the structures.

This assay has as its target AEP domain of C962R (aa 21–272) (African swine fever virus, UniProt A0A0C5B022). Kind of assay: crystal structure of AEP-dCTP-Mn2+ complex. Particulars: polymerase active site, crystallised at pH 8.0, 18 °C.

As to `Nc1ccn([C@H]2C[C@H](O)[C@@H](COP(=O)(O)OP(=O)(O)OP(=O)(O)O)O2)c(=O)n1`, the “crystal structure of AEP-dCTP-Mn2+ complex” value was “the dCTP was captured at the active site of the protein”.

These data come from PMC10516667, “Structures and implications of the C962R protein of African swine fever virus” (2023).
